Measured values from the supplement of paper PMC9931576.
Human monoclonal antibodies against the spike receptor-binding domain (heavy:light variable regions). IC50 against pseudoviruses bearing the spike of naturally observed variants; lower = stronger; >10 µg/ml means not reached at the top dose. No active / inactive call. The stated detection limit is 0.0005 µg/ml; values near or below 0.001 µg/ml lie at the floor of the assay.

B1: BD55-5182 (protein)
chain 1: EVQLVESGGGLVKPGGSLRLSCAASGFTLSNAWMTWVRQAPGKGLEWIARIKGKVDGATRDYAAPVKGRFTISTDDSKTTLFLQMNTLKTEDTAVYFCTALFTSYDMLTGRAGGRGYWGQGTLVTVSS
chain 2: NVMLTQPHSVSESPGKTVTISCTRSSGSIASNYVQWYQQRPGSAPTTVIYEDNQRPSGVPDRFSGSIDSSSNSASLTISGLETEDEADYYCQSFDSSNHMNWVFGGGTKLTVL
B2: BD55-5238 (protein)
chain 1: QEQLVESGGGVVQPGRSLRLSCAASGLTFSSYAMHWVRQAPGKGLEWVAVIWYNGLKKYYADSVKGRFTISRDNYKNTAYLQMSSLRAEDTAVYYCAREGGGDILTGNEFEFWGQGTLVTVSS
chain 2: QSVLTQPPSVSGAPGQTVTISCTGGSSNTGAGYDVHWYQQLPGTAPKLLIFANKNRPSGVPDRFSGSKSGTSASLSITGLQAEDEGDYYCQSYDSSLSGWVFGGGTKVTVL
B3: BD55-5183 (protein)
chain 1: QVQLVQSGGEVKKPGSSVKVSCRASGGTFSGYTISWVRRAPGQGLEWMGGIIPMYGAANYAQKFQGRVTISAETSTGTAYMELSGLTSDDTAMYYCARDLGGEDITVAGKAPDYWGQGTLVTVSS
chain 2: DIQMTQSPSSLSASVGDRVTVTCRASQSISKYLNWYQERPGKAPKLLIYTASSLPSEVPSRFSGSGFGTDFTLTISGLQPEDFATYYCQQSYSLPYTFGQGTKLEIK
B4: BD55-5195 (protein)
chain 1: QLQLQESGPRLVKPSETLSLTCSVSGGSIRSNSDYWAWIRQSPGQGLEWIGSISHSGSTYYNPSLKSRVSIFVDTSSNQFSLNLTSVTAADTAVYHCARHPSSGWLILWFDPWGQGTLVTVSS
chain 2: EIVLTQSPGTLSLSPGERATLSCRASQSISSNFLAWYQQKPGQAPRLLIYGASNRATDIPDRFSGSGSGTDFTLTVRRLEPEDFAVYYCHQYDTSPQTFGQGTKVEIK
B5: BD55-5196 (protein)
chain 1: QVHLVQSGAEVRKPGASVKVSCKASGYTFTSYFMYWVRQAPGHGLEWMGMIDPISGSTNYAQRFQGRVTMTRDTSTSTVNMELTSLRSEDTAVYYCARDGGIRFGDLSPDNWFDPWGRGTLVTVSS
chain 2: QSVLTQPPSVSGAPGQRVTISCTGSSSNLGAGYDVHWYQQLPGTAPKLLIYGNNNRPSGVPDRFSGSRSGTSASLAITGLLAEDEADYYCQSYDSSSLSGSKVFGTGTTVTVL
B6: BD55-5251 (protein)
chain 1: QITLKESGPALVKPTQTLTLTCTFSGFSLSSNGVGVGWIRQSPGKALEWLALIYWDDDKRYTPSLKKRLTVTKDTSKNQVVLTMTNMDPVDTATYYCAHMARPRGLFINPSWFDPWGQGTLVTVSS
chain 2: QSVLTQPPSASGTPGQRVTISCSGSSSNIGSNTIDWYQQLPGTAPRLLIYGHDLRPSGVPDRFSGSQSGTSASLVISGLQSEDEADYYCAAWDDSLNGPVFGGGTKLTVL
B7: BD55-5198 (protein)
chain 1: EVQLVESGGGVVKPGGSLRLSCAASGFTFSAFAMHWVRQVPGKGLEYISLISEDGYSTFYAASVTGRFTLSRDNNKKSLYLQMNSLRSEDTAFYYCAKDIGGTVAGTGADFWGQGILVTVSS
chain 2: QSVLTQPPSVSGAPGQKVTISCTGDSSNIGAGYTVHWYQQLPGTAPKLLIYGDNNRPSGVPDRFSGSKSGTSASLAITGLQAEDEADYYCQSYDTSLSGLWVFGGGTRLTVL
B8: BD55-5176 (protein)
chain 1: EVQLVQSGAEVKKPGESLKISCKGSGSSFITYWIGWVRQMPGKGLEWMGIIYPGDSDSRYSSSFQGQVTISADKAISTAYLQWHSLKASDTAMYFCVGTSGYLGDAFDSWGQGTMVTVSS
chain 2: DIVMTQSPDSLAVSLGERATIICRSSQSVLHSSVNKNYLAWYQQKPRQPPKLLMYWASTRESGVPDRFSGSGSGTDFSLTISSLQAEDVAVYYCQQYYTSPYTFGQGTKLEIK
B9: BD55-5250 (protein)
chain 1: QVQLVQSGAEVKKPGASVKVSCKASGYTFTSNAIHWVRQAPGQRLEWMGWIMADNGYTKYSENFQGRVTITRDTSASTVYMEVSSLRSGDTAVYYCAREGSMWYSTYFDHWGQGTLVTVSS
chain 2: DIQMTQSPSSLSASVGDRVTITCRASQSISSYLTWYQQKSGTAPKLLIYAASSLQSGVPSRFSGSGSGTDFTLTISSLQPEDFATYYCQQSYTDPFTFGPGTKVDFK
B10: BD55-5170 (protein)
chain 1: QVQLVESGGGVVQPGRSLRLSCVASGFTFNTYGMHWVRQVPGKGLEWVAVISYDGSNQIYGDSVKGRFTISRDNSKNTVYLQMNGLRAEDTAVYYCATPLHDYSGYDLFDYGYAMDVWGQGTTVTVSS
chain 2: QSVLTQPPSASGTPGQRVTVSCSGSSSNIGSDYVYWYQQFPGTAPKLLIYRNSQRPSGVPDRFSGSKSGTSASLAISGLRSEDEADYYCAAWDGSISAWVFGGGTKLTVL
B11: BD55-5175 (protein)
chain 1: QVQLVQSGPELKRPGASVKVSCETSGYTFTDYAINWVRQAPGQGLEWMGWINTNTGHPTYAQGFTGRFVFSVDMSDSTAYLQISSLKPADTAVYYCARDFQVPEGLDYWGQGTLVTVSS
chain 2: DIVMTQSPATLSLSPGETATLSCRASYSFTSRLAWYQQKPGQAPRLLIHDASNRAPGVPARFSGSGSGTEFTLAISGLQSEDSAVYYCQQYHSWPLTFGQGTKVEIK
B12: BD55-5233 (protein)
chain 1: EVQLLESGGGLVQPGGSLRLSCAASGFTFSRSSMGWVRQAPGKGLEWVSTISEDGYTPYYADSVKGRFTISRDNSENRLFLQMNGLRAEDTALYYCAKDVDFDKWRQTCFDSWGQGALVTVSS
chain 2: QSVLTQPPSVSGAPGQRVTISCTGSNSNIGAGYDVHWYQQLPGTAPKLLIYGNNNRPSGVPDRFSGSKSGTSASLAITGLQAEDEADYYCQSYDSSLNVLYVFGTGTRVTVL

The binders below were run against SARS-CoV-2 Omicron BA.1 spike pseudovirus (assay: pseudovirus neutralization IC50; higher = weaker neutralization).
Procedure: (§1)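 Single-round VSV luciferase pseudovirus mixed with antibody dilutions for 1 h and put on Huh-7 cells for about a day; IC50 from the dose curve.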

B1 and B2 cannot be ordered by “pseudovirus neutralization IC50” value: over 10 µg/mL for the first, over 10 µg/mL for the second.

B3 and B4 cannot be ordered by “pseudovirus neutralization IC50” value: over 10 µg/mL for the first, over 10 µg/mL for the second.

Compared with B5, B6 is lower in “pseudovirus neutralization IC50” value: over 10 µg/mL for the first, 8.9 µg/mL for the second.

B7 and B8 cannot be ordered by “pseudovirus neutralization IC50” value: over 10 µg/mL for the first, over 10 µg/mL for the second.

B9 and B10 cannot be ordered by “pseudovirus neutralization IC50” value: over 10 µg/mL for the first, over 10 µg/mL for the second.

B11 and B12 cannot be ordered by “pseudovirus neutralization IC50” value: over 10 µg/mL for the first, over 10 µg/mL for the second.

Each binder was assayed against SARS-CoV-2 Omicron BA.2 spike pseudovirus in the same assay as above.
Procedure: as §1

B1 and B2 cannot be ordered by “pseudovirus neutralization IC50” value: over 10 µg/mL for the first, over 10 µg/mL for the second.

B3 and B4 cannot be ordered by “pseudovirus neutralization IC50” value: over 10 µg/mL for the first, over 10 µg/mL for the second.

Compared with B5, B6 is lower in “pseudovirus neutralization IC50” value: over 10 µg/mL for the first, 6.31 µg/mL for the second.

B7 and B8 cannot be ordered by “pseudovirus neutralization IC50” value: over 10 µg/mL for the first, over 10 µg/mL for the second.

B9 and B10 cannot be ordered by “pseudovirus neutralization IC50” value: over 10 µg/mL for the first, over 10 µg/mL for the second.

B11 and B12 cannot be ordered by “pseudovirus neutralization IC50” value: over 10 µg/mL for the first, over 10 µg/mL for the second.

What follows are binders tested against SARS-CoV-2 Omicron BA.2.75 spike pseudovirus in the same assay as above.
Procedure: as §1

B1 and B2 cannot be ordered by “pseudovirus neutralization IC50” value: over 10 µg/mL for the first, over 10 µg/mL for the second.

B3 and B4 cannot be ordered by “pseudovirus neutralization IC50” value: over 10 µg/mL for the first, over 10 µg/mL for the second.

Compared with B5, B6 is lower in “pseudovirus neutralization IC50” value: over 10 µg/mL for the first, 8.72 µg/mL for the second.

B7 and B8 cannot be ordered by “pseudovirus neutralization IC50” value: over 10 µg/mL for the first, over 10 µg/mL for the second.

B9 and B10 cannot be ordered by “pseudovirus neutralization IC50” value: over 10 µg/mL for the first, over 10 µg/mL for the second.

B11 and B12 cannot be ordered by “pseudovirus neutralization IC50” value: over 10 µg/mL for the first, over 10 µg/mL for the second.

Each binder was assayed against SARS-CoV-2 Omicron BA.5 spike pseudovirus in the same assay as above.
Procedure: as §1

B1 and B2 cannot be ordered by “pseudovirus neutralization IC50” value: over 10 µg/mL for the first, over 10 µg/mL for the second.

B3 and B4 cannot be ordered by “pseudovirus neutralization IC50” value: over 10 µg/mL for the first, over 10 µg/mL for the second.

Going from B5 to B6, the “pseudovirus neutralization IC50” value falls from over 10 µg/mL to 3.62 µg/mL.

B7 and B8 cannot be ordered by “pseudovirus neutralization IC50” value: over 10 µg/mL for the first, over 10 µg/mL for the second.

B9 and B10 cannot be ordered by “pseudovirus neutralization IC50” value: over 10 µg/mL for the first, over 10 µg/mL for the second.

B11 and B12 cannot be ordered by “pseudovirus neutralization IC50” value: over 10 µg/mL for the first, over 10 µg/mL for the second.

Each binder was assayed against SARS-CoV-2 Omicron BQ.1.1 spike pseudovirus in the same assay as above.
Procedure: as §1

B1 and B2 cannot be ordered by “pseudovirus neutralization IC50” value: over 10 µg/mL for the first, over 10 µg/mL for the second.

B3 and B4 cannot be ordered by “pseudovirus neutralization IC50” value: over 10 µg/mL for the first, over 10 µg/mL for the second.

B5 and B6 cannot be ordered by “pseudovirus neutralization IC50” value: over 10 µg/mL for the first, over 10 µg/mL for the second.

B7 and B8 cannot be ordered by “pseudovirus neutralization IC50” value: over 10 µg/mL for the first, over 10 µg/mL for the second.

B9 and B10 cannot be ordered by “pseudovirus neutralization IC50” value: over 10 µg/mL for the first, over 10 µg/mL for the second.

B11 and B12 cannot be ordered by “pseudovirus neutralization IC50” value: over 10 µg/mL for the first, over 10 µg/mL for the second.

The binders below were run against SARS-CoV-2 Omicron XBB spike pseudovirus in the same assay as above.
Procedure: as §1

B1 and B2 cannot be ordered by “pseudovirus neutralization IC50” value: over 10 µg/mL for the first, over 10 µg/mL for the second.

B3 and B4 cannot be ordered by “pseudovirus neutralization IC50” value: over 10 µg/mL for the first, over 10 µg/mL for the second.

B5 and B6 cannot be ordered by “pseudovirus neutralization IC50” value: over 10 µg/mL for the first, over 10 µg/mL for the second.

B7 and B8 cannot be ordered by “pseudovirus neutralization IC50” value: over 10 µg/mL for the first, over 10 µg/mL for the second.

B9 and B10 cannot be ordered by “pseudovirus neutralization IC50” value: over 10 µg/mL for the first, over 10 µg/mL for the second.

B11 and B12 cannot be ordered by “pseudovirus neutralization IC50” value: over 10 µg/mL for the first, over 10 µg/mL for the second.

These binders were tested against SARS-CoV-2 early D614G spike pseudovirus in the same assay as above.
Procedure: as §1

B1 and B2 are within 1.5-fold of each other in “pseudovirus neutralization IC50” value: 0.256 µg/mL for the first, 0.219 µg/mL for the second.

B3 and B4 are within 1.5-fold of each other in “pseudovirus neutralization IC50” value: 0.382 µg/mL for the first, 0.319 µg/mL for the second.

First: B5
Second: B6
The “pseudovirus neutralization IC50” value of the first is 3.4-fold lower: 0.245 µg/mL for the first, 0.832 µg/mL for the second.

Compared with B7, B8 is higher in “pseudovirus neutralization IC50” value: 2.08 µg/mL for the first, over 10 µg/mL for the second.

First: B9
Second: B10
The “pseudovirus neutralization IC50” value of the first is 75-fold higher: 1.63 µg/mL for the first, 0.0218 µg/mL for the second.

First: B11
Second: B12
The “pseudovirus neutralization IC50” value of the first is 510-fold lower: 0.001 µg/mL for the first, 0.512 µg/mL for the second.
